Measured values from several laboratories, pooled; numbers as filed in NIAID ChemDB.

Common to all: tests in culture; species: Mycobacterium avium complex

Neighbouring rows are from separate reports. Two numbers with a dash give a range or band.

structure	endpoint	strain	result
CC[C@H]1OC(=O)[C@H](C)[C@@H](O[C@H]2C[C@@](C)(OC)[C@@H](OC(C)=O)[C@H](C)O2)[C@H](C)[C@@H](O[C@@H]2O[C@H](C)C[C@H](N(C)C)[C@H]2OC(=O)NNC)C(C)(O)C[C@@H](C)/C(=N\OCCCC2CCCCC2)[C@H](C)[C@@H](O)[C@]1(C)O	MIC	20092 (clarithromycin-resistant)	3.13 µg/mL
CC1(C)N=C(N)N=C(N)N1OCCCOc1cc(Cl)c(Cl)cc1Cl	MIC	1102	4 µg/mL
CC[C@H]1OC(=O)[C@H](C)[C@@H](O[C@H]2C[C@@](C)(OC)[C@@H](OC(C)=O)[C@H](C)O2)[C@H](C)[C@@H](O[C@@H]2O[C@H](C)C[C@H](N(C)C)[C@H]2OC(=O)NNc2ccccc2)C(C)(O)C[C@@H](C)/C(=N\OCCCC2CCCCC2)[C@H](C)[C@@H](O)[C@]1(C)O	MIC	20092 (clarithromycin-resistant)	0.78 µg/mL
CC1(C)N=C(N)N=C(N)N1OCCCOc1cc(Cl)c(Cl)cc1Cl	MIC	DW6	16 µg/mL
NNC(=O)c1ccncc1	MIC	E12460	1.25–1.6 µg/mL
CO[C@H]1/C=C/O[C@@]2(C)Oc3c(C)c(O)c4c(O)c(c5c(c4c3C2=O)NC2(CCN(CC(C)C)CC2)N=5)=NC(=O)/C(C)=C\C=C\[C@H](C)[C@H](O)[C@@H](C)[C@@H](O)[C@@H](C)[C@H](OC(C)=O)[C@@H]1C	MIC	N-978 (HIV+)	0.8 µg/mL
C[C@@H]1CN(c2c(F)c(N)c3c(=O)c(C(=O)O)cn(C4CC4)c3c2F)C[C@H](C)N1	MBC	Isolate 90-0738	5 µg/mL
Cc1c(CNc2ccc3ncccc3c2)cnc2nc(N)nc(N)c12	MIC	NJ168	≤0.13 µg/mL
NNC(=O)c1ccncc1	MIC	N-978 (HIV+)	64 µg/mL
CCN=c1cc2n(-c3ccc(Cl)cc3)c3ccccc3nc-2cc1Nc1ccc(Cl)cc1	MIC	715	0.25 µg/mL
CO[C@H]1/C=C/O[C@@]2(C)Oc3c(C)c(O)c4c(=O)c(c5oc6cc(N7CCN(CC(C)C)CC7)cc(=O)c6nc5c4c3=C2O)NC(=O)/C(C)=C\C=C\[C@H](C)[C@H](O)[C@@H](C)[C@@H](O)[C@@H](C)[C@H](OC(C)=O)[C@@H]1C	MIC	N-316 (HIV-)	0.1 µg/mL
COc1ccc(C(F)(F)F)cc1NCc1cnc2nc(N)nc(N)c2c1C	MIC	NJ168	≤0.13 µg/mL
CC[C@H]1OC(=O)[C@H](C)[C@@H](O[C@H]2C[C@@](C)(OC)[C@@H](OC(C)=O)[C@H](C)O2)[C@H](C)[C@@H](O[C@@H]2O[C@H](C)C[C@H](N(C)C)[C@H]2O)C(C)(O)C[C@@H](C)/C(=N\OCc2ccccc2)[C@H](C)[C@@H](O)[C@]1(C)O	MIC	20039 (clarithromycin-susceptible)	3.13 µg/mL
Cc1c(CNc2cc(Cl)ccc2Cl)cnc2nc(N)nc(N)c12	MIC	NJ168	≤0.13 µg/mL
CC[C@H]1OC(=O)[C@H](C)[C@@H](O[C@H]2C[C@@](C)(OC)[C@@H](O)[C@H](C)O2)[C@H](C)[C@@H](O[C@@H]2O[C@H](C)C[C@H](N(C)C)[C@H]2O)[C@](C)(OC)C[C@@H](C)C(=O)[C@H](C)[C@@H](O)[C@]1(C)O	MIC	N-314 (HIV-)	2 µg/mL
Cc1c(CNc2cnc3ccccc3c2)cnc2nc(N)nc(N)c12	MIC	NJ168	≤0.13 µg/mL
CCc1nc(N)nc(N)c1-c1ccc(Cl)cc1	MIC	DW20	32 µg/mL
COc1ccc(C)cc1NCc1cnc2nc(N)nc(N)c2c1C	MIC	NJ3404	≤0.13 µg/mL
CC(C)N=c1cc2n(-c3ccc(Cl)cc3)c3ccccc3nc-2cc1Nc1ccc(Cl)cc1	MBC	715	64 µg/mL
CC[C@H]1OC(=O)[C@H](C)[C@@H](O[C@H]2C[C@@](C)(OC)[C@@H](O)[C@H](C)O2)[C@H](C)[C@@H](O[C@@H]2O[C@H](C)C[C@H](N(C)C)[C@H]2O)[C@](C)(OC)C[C@@H](C)C(=O)[C@H](C)[C@@H](O)[C@]1(C)O	MIC	20096 (clarithromycin-resistant)	>50 µg/mL
CCCOc1ccc(NCc2cnc3nc(N)nc(N)c3c2C)cc1OC	MIC	NJ211	≤0.13 µg/mL

For reference, 2 entries again:

| structure | endpoint | strain | result |
|---|---|---|---|
| COc1ccc(C)cc1NCc1cnc2nc(N)nc(N)c2c1C | MIC | NJ3404 | ≤0.13 µg/mL |
| NNC(=O)c1ccncc1 | MIC | E12460 | 1.25–1.6 µg/mL |